Experimental data published in patent US20070027109A1 (priority 2002, published 2007).

What was measured:
HIV-1 RoJo = assay: PBMC assay, HIV-1 RoJo replication (RT activity); conditions: PBMCs, Example 6
Source text: Human peripheral blood mononuclear cells from a minimum of two donors, that have been blasted with PHA and IL-2, were counted, viability determined by Trypan Blue dye exclusion and mixed in equal ratios. Pooled donors were used to minimize the variability observed between individual donors which results from quantitative and qualitative differences in HIV infection and overall response to the PHA and IL-2 of primary lymphocyte populations. […] Fifty microliters of cells were then distributed to the inner 60 wells of a 96 well round bottom microtiter culture plate in a standard format developed by the Infectious Disease Research department of Southern Research Institute. Each plate contains cell control wells (cells only), virus control wells (cells plus virus), and experimental wells (drug plus cells plus virus). Serially diluted compounds were added to the microtiter plate followed by the appropriate pretitered dilution of HIV-1 RoJo. […] The assay was incubated for 6 days in a humidified atmosphere at 37° C., 5% CO2, after which supernatants were collected, for analysis of RT activity and sister plates analyzed for cell viability by MTS dye reduction. […]
Reverse transcriptase (RT) activity was measured in cell-free supernatants. […]
The IC50 and TC50 values were calculated by linear regression. […]

[1] = tested on: human peripheral blood mononuclear cells (PBMCs); format: cell-based
Experimental: The final volume per well was 200 μL. […] Wells were also examined microscopically and any abnormalities noted.
At assay termination the assay plates were stained with the soluble tetrazolium-based dye MTS (CellTiter96® Reagent Promega) to determine cell viability and quantify compound toxicity. […] At termination of the assay 20 μL of MTS reagent was added per well and incubated for 4 h at 37° C. Adhesive plate sealers were used in place of the lids, the sealed plate was inverted several times to mix the soluble formazan product and the plate was read spectrophotometrically at 490 nm with a Molecular Devices Vmax plate reader.

Substance	TI (TC50/IC50) (HIV-1 RoJo)	TC50 [1] [mg/L]
sulfated dextran, 12.2% sulfur, molecular weight 36,000 [DES 12.5% Sulfation]	>317	100
sulfated dextran, 9.5% sulfur, molecular weight 30,000 [DES 9.5% Sulfation]	>26	100
